System: Human Embryonic Kidney cells (HEK 293)

## 3-((2-Isonicotinoylhydrazono)methyl)phenyl quinoline-8-sulfonate [SIH13]
  Cytotoxicity against HEK293 (in words): moderately toxic
